Measured values as given in PubChem BioAssay AID588501 (NMMLSC, 2011).
This is a selection; strong and weak results do not stand in their true shares. Calls of active or inactive are those of the source. Cut-off read from the data, not from the text of the source: active = inhibition above about 30%; inconclusive = no clear call, values can overlap the other calls; inactive = below that.

biological target: Lethal factor (Bacillus anthracis) (UniProt P15917); assay: anthrax lethal factor cleavage blockers – biochemical, multiplex microsphere, MLPCN library, primary screen (AID 588501); conditions: multiplex microsphere protease cleavage assay, LF; at 10 µM; stronger effect = higher value; note: plate controls were buffer without enzyme for full effect and enzyme alone for no effect

| SMILES | inhibition |
| --- | --- |
| CN(C)c1ccc(C(=O)NCC2(N3CCCCC3)CCCCC2)cc1 | inactive: -4.2% |
| Cn1c(=O)[nH]cc(N(CCCl)CCCl)c1=O | inactive: -5.9% |
| O=C(NCC1(N2CCCCC2)CCCCC1)c1ccco1 | inactive: -0.7% |
| COc1ccc(C(c2nnnn2C2CCCCC2)N2CCC(n3c(=O)[nH]c4ccccc43)CC2)cc1 (configuration not stated) | inactive: -0.2% |
| CCN1CCC(Nc2cccc(F)c2)CC1 | inactive: -0.3% |
| CC(C)(C)n1nnnc1C(c1ccnc2ccccc12)N1CCC(n2c(=O)[nH]c3ccccc32)CC1 (configuration not stated) | inactive: 14.7% |
| Cc1ccccc1NC1(C#N)CCN(Cc2ccccc2)CC1 | inactive: 2.6% |
| Fc1ccccc1NC1CCN(Cc2ccccc2)CC1 | inactive: 1.9% |
| Cc1ccc(C(=O)NCC2(N3CCCCC3)CCCCC2)o1 | inactive: -0.5% |
| Cc1ccc(NC2(C#N)CCN(Cc3ccccc3)CC2)cc1 | inactive: 0.8% |
| CCC(c1nnnn1C1CCCCC1)N1CCC(n2c(=O)[nH]c3ccccc32)CC1 (configuration not stated) | inactive: -3.7% |
| COc1cccc(C(c2nnnn2C2CCCCC2)N2CCC(n3c(=O)[nH]c4ccccc43)CC2)c1OC (configuration not stated) | inactive: 4.5% |
| CC(=O)N(c1ccccc1)C1CCNCC1 | inactive: -6.9% |
| COc1cc(OC)cc(C(=O)NCC2(N3CCCCC3)CCCCC2)c1 | inactive: 9.7% |
| O=c1[nH]c2ccccc2n1C1CCN(C(c2ccnc3ccccc23)c2nnnn2C2CCCCC2)CC1 (configuration not stated) | inactive: -1.5% |
| CN1CCC(Nc2ccc(Cl)cc2)CC1 | inactive: 1.8% |
| COc1cc(OC)cc(C(=O)NCC2(N3CCOCC3)CCCCC2)c1 | inactive: -2.8% |
| COc1cccc(C(c2nnnn2C2CCCC2)N2CCC(n3c(=O)[nH]c4ccccc43)CC2)c1OC (configuration not stated) | inactive: 7.7% |
| COc1cccc(C(=O)N(c2cc(C)cc(C)c2)C2CCN(C(=O)OC(C)(C)C)CC2)c1 | inactive: 2.7% |
| CCC(CO)(C(=O)OC1CN2CCC1CC2)c1ccccc1 (configuration not stated) | inactive: 0.1% |
| O=C(O)C1(Nc2ccccc2)CCN(Cc2ccccc2)CC1 | inactive: -0.5% |
| NN(c1ccccc1)C1CCN(CCc2ccccc2)CC1 | inactive: -2.1% |

| SMILES | inhibition |
| --- | --- |
| CC(C)(C)OC(=O)N1CCC(Nc2ccccc2)CC1 | inactive: -2.8% |
| O=c1[nH]c2ccccc2n1C1CCN(C(c2cc3ccccc3o2)c2nnnn2C2CCCC2)CC1 (configuration not stated) | inactive: -2.5% |
| CCCOc1ccc(C(=O)NCC2(N(C)C)CCCCC2)cc1 | inactive: 3.6% |
| CN1CCC(Nc2ccc(F)c(Cl)c2)CC1 | inactive: -1.2% |
| CCOc1ncccc1C(=O)NCC1(N2CCOCC2)CCCCC1 | inactive: 0.7% |
| O=c1[nH]c2ccccc2n1C1CCN(C(c2cccs2)c2nnnn2C2CCCC2)CC1 (configuration not stated) | inactive: -0.5% |
| O=C(OC1CN2CCC1CC2)C1c2ccccc2C=Cc2ccccc21 (configuration not stated) | inactive: 0.8% |
| CCCCn1nnnc1C(c1cccc(OC)c1OC)N1CCC(n2c(=O)[nH]c3ccccc32)CC1 (configuration not stated) | inactive: 0.6% |
| COc1cccc(C(c2nnnn2C(C)(C)C)N2CCC(n3c(=O)[nH]c4ccccc43)CC2)c1OC (configuration not stated) | inactive: 1.6% |
| N/C(=N\O)c1c(N)no[n+]1[O-] | inactive: 1% |
| O=c1[nH]c2ccccc2n1C1CCN(C(c2cccs2)c2nnnn2C2CCCCC2)CC1 (configuration not stated) | inactive: -17% |
| O=c1[nH]c2ccccc2n1C1CCN(C(c2ccnc3ccccc23)c2nnnn2C2CCCC2)CC1 (configuration not stated) | inactive: 4% |
| COc1ccc(C(=O)NCC2(N3CCOCC3)CCCCC2)cc1OC | inactive: -4% |
| COc1cc(C(=O)NCC2(N3CCOCC3)CCCCC2)cc(OC)c1C | inactive: 1.5% |
| CCCCn1nnnc1C(c1ccccc1)N1CCC(n2c(=O)[nH]c3ccccc32)CC1 (configuration not stated) | inactive: 0.2% |
| O=C(NCC1(N2CCOCC2)CCCCC1)c1cc(Br)ccc1Cl | inactive: 3.8% |
| CC(C)(C)n1nnnc1C(c1cccc2ccccc12)N1CCC(n2c(=O)[nH]c3ccccc32)CC1 (configuration not stated) | inactive: 3.6% |
| CN(C)C1(CNC(=O)c2cccc(C#N)c2)CCCCC1 | inactive: 9.8% |
| O=c1[nH]c2ccccc2n1C1CCN(C(c2ccccc2)c2nnnn2C2CCCC2)CC1 (configuration not stated) | inactive: -5.7% |
| CCCN1CCC(Nc2cc(OC)cc(OC)c2)CC1 | inactive: -11% |
| Cc1cc(N(CCCl)CCCl)ccc1C=O | inactive: 4% |
| c1ccc(CN2CCC(Nc3ccccc3)CC2)cc1 | inactive: -0.2% |

| SMILES | inhibition |
| --- | --- |
| N#Cc1ccc(C(=O)NCC2(N3CCCCC3)CCCCC2)cc1 | inactive: 2.8% |
| CC(C)(C)OC(=O)N1CCC(N(C(=O)c2ccccc2)c2ccc(Cl)cc2)CC1 | inactive: -13% |
| COc1cc(C(=O)NCC2(N3CCCCC3)CCCCC2)ccc1OC(F)F | inactive: -1.2% |
| O=C(NCC1(N2CCOCC2)CCCCC1)c1cc(=O)[nH]c2ccccc12 | inactive: -1.3% |
| CN1CCN(CCOC(=O)C(O)(c2ccccc2)c2ccccc2)CC1 | inactive: 10.6% |
| COc1ccc(NC2CCN(C(=O)OC(C)(C)C)CC2)cc1 | inactive: -2.8% |
| CC(C)c1ccc(C(=O)NCC2(N3CCOCC3)CCCCC2)cc1 | inactive: -5.6% |
| CCCCn1nnnc1C(c1cccc2ccccc12)N1CCC(n2c(=O)[nH]c3ccccc32)CC1 (configuration not stated) | inactive: -6% |
| O=C(NCC1(N2CCCCC2)CCCCC1)c1cccc(C(F)(F)F)c1 | inactive: -0.5% |
| O=c1[nH]c2ccccc2n1C1CCN(C(c2ccccc2OC(F)(F)F)c2nnnn2C2CCCC2)CC1 (configuration not stated) | inactive: 3.3% |
| N#CC1(Nc2ccccc2)CCN(CCc2ccccc2)CC1 | inactive: 1.5% |
| CCN1CCC(Nc2ccc(Cl)cc2)CC1 | inactive: -14.9% |
| O=C(NCC1(N2CCCCC2)CCCCC1)c1cccc([N+](=O)[O-])c1 | inactive: -1.3% |
| CSc1ccc(C(=O)NCC2(N3CCOCC3)CCCCC2)cc1 | inactive: 1.9% |
| O=C(NCC1(N2CCCCC2)CCCCC1)c1ccc(OC(F)F)cc1 | inactive: -0.1% |
| CC(C)(C)n1nnnc1C(c1ccccc1OC(F)(F)F)N1CCC(n2c(=O)[nH]c3ccccc32)CC1 (configuration not stated) | inactive: -0.3% |
| COc1ccc(C(c2nnnn2C2CCCC2)N2CCC(n3c(=O)[nH]c4ccccc43)CC2)cc1 (configuration not stated) | inactive: -0.4% |
| CCCOc1ccc(C(=O)NCC2(N(C)C)CCCCC2)cc1OC | inactive: -7.3% |
| Cc1ccc(C(=O)NCC2(N(C)C)CCCCC2)o1 | inactive: 0.1% |
| CN1CCC(Nc2cccc(F)c2)CC1 | inactive: -0.9% |
| O=C(NCC1(N2CCCCC2)CCCCC1)c1cncc(Br)c1 | inactive: 0% |
| O=C(NCC1(N2CCOCC2)CCCCC1)c1cc(F)c(F)cc1Cl | inactive: -1.9% |

| SMILES | inhibition |
| --- | --- |
| CCC(c1nnnn1C(C)(C)C)N1CCC(n2c(=O)[nH]c3ccccc32)CC1 (configuration not stated) | inactive: -5.5% |
| COc1cc(OC)c(C(=O)NCC2(N(C)C)CCCCC2)cc1OC | inactive: -7.6% |
| CCCCn1nnnc1C(c1ccnc2ccccc12)N1CCC(n2c(=O)[nH]c3ccccc32)CC1 (configuration not stated) | inactive: 3.5% |
| CCCCn1nnnc1C(c1ccccc1OC(F)(F)F)N1CCC(n2c(=O)[nH]c3ccccc32)CC1 (configuration not stated) | inactive: 0.3% |
| CC(C)c1ccc(NC2CCN(C(=O)OC(C)(C)C)CC2)cc1 | inactive: -3.7% |
| CN(C)c1cccc(C(=O)NCC2(N3CCCCC3)CCCCC2)c1 | inactive: 3% |
| COc1ccc(CN(CCCl)CCCl)cc1Cl | inactive: 0.3% |
| COc1ccc(Cl)cc1C(=O)NCC1(N2CCOCC2)CCCCC1 | inactive: 4.6% |
| O=C(NCC1(N2CCCCC2)CCCCC1)c1ccc(Cl)s1 | inactive: -2.8% |
| N#CC1(Nc2ccccc2)CCN(Cc2ccccc2)CC1 | inactive: 10.6% |
| O=C(OC1CN2CCC1CC2)C1c2ccccc2Oc2ccccc21 (configuration not stated) | inactive: -3.9% |
| O=c1[nH]c2ccccc2n1C1CCN(C(c2cc3ccccc3o2)c2nnnn2C2CCCCC2)CC1 (configuration not stated) | inactive: -4.7% |
| CCCCn1nnnc1C(c1ccc(OC)cc1)N1CCC(n2c(=O)[nH]c3ccccc32)CC1 (configuration not stated) | inactive: 9.7% |
| CCOC(=O)N1CCC(Nc2ccc(OC)cc2)CC1 | inactive: -1% |
| Cc1cc(C)cc(N(C(=O)c2ccccc2)C2CCN(C(=O)OC(C)(C)C)CC2)c1 | inactive: -14.7% |
| O=C(NCC1(N2CCCCC2)CCCCC1)c1ccc(Cl)nc1 | inactive: -1.6% |
| O=c1[nH]c2ccccc2n1C1CCN(C(c2ccccc2OC(F)(F)F)c2nnnn2C2CCCCC2)CC1 (configuration not stated) | inactive: 0.3% |
| O=C(NCC1(N2CCOCC2)CCCCC1)c1cc2ccccc2o1 | inactive: -15.5% |
| Cc1cccc(NC2(C#N)CCN(Cc3ccccc3)CC2)c1 | inactive: -4.2% |
| CSc1ccccc1C(=O)NCC1(N2CCCCC2)CCCCC1 | inactive: -5.4% |
| COc1ccc(C(=O)NCC2(N3CCCCC3)CCCCC2)c(OC)c1OC | inactive: -1.4% |
| CC(C)(C)OC(=O)N1CCC(N(C(=O)c2ccccc2)c2ccc(F)cc2)CC1 | inactive: -8.4% |

| SMILES | inhibition |
| --- | --- |
| CCC(c1nnnn1C1CCCC1)N1CCC(n2c(=O)[nH]c3ccccc32)CC1 (configuration not stated) | inactive: -6% |
| COc1ccc(C(=O)NCC2(N3CCCCC3)CCCCC2)cc1 | inactive: 0.3% |
| CCCCn1nnnc1C(CC)N1CCC(n2c(=O)[nH]c3ccccc32)CC1 (configuration not stated) | inactive: -2.9% |
| O=C(NCC1(N2CCCCC2)CCCCC1)c1cccs1 | inactive: 5.3% |
| CCCCn1nnnc1C(c1cccs1)N1CCC(n2c(=O)[nH]c3ccccc32)CC1 (configuration not stated) | inactive: 3.7% |
| O=C(NCC1(N2CCCCC2)CCCCC1)c1ccc(=O)[nH]c1 | inactive: 0.9% |
| CCOC(=O)N1CCC(Nc2cccc(C)c2)CC1 | inactive: -4.1% |
| COc1cc(C(=O)NCC2(N(C)C)CCCCC2)ccc1OC(F)F | inactive: -5.5% |
| O=c1[nH]c2ccccc2n1C1CCN(C(c2cccc3ccccc23)c2nnnn2C2CCCC2)CC1 (configuration not stated) | inactive: -0.7% |
| O=c1[nH]c2ccccc2n1C1CCN(C(c2ccccc2)c2nnnn2C2CCCCC2)CC1 (configuration not stated) | inactive: 2.5% |
| COc1ccc(NC2CCN(CCc3ccccc3)CC2)c(OC)c1 | inactive: -8.4% |
| CCOC(=O)N1CCC(Nc2ccc(F)cc2)CC1 | inactive: 17.2% |
| CCCCn1nnnc1C(c1cc2ccccc2o1)N1CCC(n2c(=O)[nH]c3ccccc32)CC1 (configuration not stated) | inactive: -3.4% |
| O=P1(N(CCCl)CCCl)SCCCS1 | inactive: -9.3% |
| CCCCOc1ccc(C(=O)NCC2(N3CCOCC3)CCCCC2)cc1 | inactive: 7.4% |
| O=C(NCC1(N2CCCCC2)CCCCC1)c1ccc(F)cc1 | inactive: -1.3% |
| O=C1CCN(Cc2ccccc2)CC1 | inactive: -7.9% |
| CC(C)(C)n1nnnc1C(c1ccccc1)N1CCC(n2c(=O)[nH]c3ccccc32)CC1 (configuration not stated) | inactive: 2.6% |
| CCOc1ccc(C)cc1CN(CCCl)CCCl | inactive: -0.2% |
